Experiments:
[1] = biological target: T1, PTPN4-PDZ (residues G499-N604) (human), P29074; assay: NMR titration
T1 chain: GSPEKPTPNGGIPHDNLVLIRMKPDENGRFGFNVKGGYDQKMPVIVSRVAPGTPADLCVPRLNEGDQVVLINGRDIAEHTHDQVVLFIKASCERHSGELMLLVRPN

[2] = biological target: T1, PTPN4-PDZ (residues G499-N604) (human), …; assay: NMR titration, 15N-labeled PTPN4-PDZ with unlabeled peptide
[3] = biological target: T1, PTPN4-PDZ (residues G499-N604) (human), …
[4] = biological target: T1, PTPN4-PDZ (residues G499-N604) (human), …; assay: ITC titration

SWESHKSGRETEV (modifications not checked) [Cyto8-RETEV]
fold increase in affinity against Cyto13-att [1]: 160 fold
fold increase in affinity against GluN2A-16 [1]: 40 fold
Kd [2]: 1000 nM

SWESHKSGGQTRL [Cyto13-vir]
fold difference in Kd against Cyto13-att [3]: 4 fold

SWYERETEV (modifications not checked) [… (SEQ ID NO: 2)]
Kd [4]: 1090 nM

SWERRETEV (modifications not checked) [… (SEQ ID NO: 5)]
Kd [4]: 2000 nM

SWESHKSGGESDV (modifications not checked) [Cyto9-ESDV]
Kd [2]: 85000 nM

Source: patent US20140302123A1, “Products useful for the treatment of malignant neoplasms of the human nervous system” (published 2014)
